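Whole-cell growth test on Mycobacterium tuberculosis, read after 3 days in glucose-containing 7H9 medium; the read-out is not stated. Compounds at 500 µM. The record gives no direction; compounds that gave an IC50 in retests scored well above the rest, so higher reads as more growth inhibition. Of about 18,000 compounds tested this way, about 1,400 (7.9%) reached 50% or more in at least one test.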

The filed quantity is “Percent Effect” (%).
How 0% and 100% were set is not recorded. Most values in the screen are low, and negative values occur.
Many other results are left out here, so strong results are more common than in the screen.

| compound | Percent Effect |
|---|---|
| `Cc1cc(C(C)NC(=O)CN2CSCC2=O)c(C)s1` (centres unmarked) | 56.28 |
| `COc1cc(C(C)N)ccc1OCc1ccncc1` (centres unmarked) | 42.7 |
| `CCOc1cccc(N2CCNCC2)c1` | 23.34 |
| `CNC(=O)CCSc1ccc2c(c1)OCCO2` | 67.74 |
| `CCCNC(=O)c1ccc(CN2CCOCC2)cc1` | 29.37 |
| `CNS(=O)(=O)c1ccc(C(=O)NC2CCSCC2)cc1` | 2.5 |
| `CN1CCCCC1CCC(=O)NCc1ccc(O)cc1` (centres unmarked) | 11.39 |
| `CSCc1ccc(C(=O)NCCc2cccnc2)o1` | 35.56 |
| `CC(C(=O)NCc1cccs1)n1cccn1` (centres unmarked) | 19.2 |
| `CCN(CC)C(=O)Nc1cc(OC)c(OC)c(OC)c1` | 17.34 |
| `Cc1cnc(NC(=O)c2cnccn2)c(Br)c1` | -7.073 |
| `O=C1OCCN1CCn1nnc(-c2ccc(F)cc2)n1` | 39.9 |
| `COCCOc1ccc(C(=O)NCc2ccco2)cc1` | 75.99 |
| `CN(C)CCN(C)Cc1ccc(N)nc1` | 6.795 |
| `CN(C)C(=O)c1cccnc1SC(F)F` | 13.37 |
| `CCCC(=O)Nc1cc(C(=O)OC)cc(C(=O)OC)c1` | 60.29 |
| `COCCNC(=O)Nc1ccc2c(c1)OC(C)(C)O2` | 55.92 |
| `CNC(=O)c1cccnc1N1CCSCC1` | 12.96 |
| `COc1ccnc(N2CCC(c3nncn3C)CC2)n1` | 18.86 |
| `CN1CC(CCN)C1` | -15.54 |
| `CN(Cc1cccs1)C(N)=O` | -6.769 |
| `OCC1(O)CCc2ccccc21` (centres unmarked) | 16.12 |
| `CCCn1nnc(NC(=O)COc2ccc(Cl)cc2)n1` | 100 |
| `COCCN1CCC(CNC(=O)c2coc(Br)c2)CC1` | 18.68 |
| `NC1CCCN(c2cccc(F)c2)C1` (centres unmarked) | 25.25 |
| `Cc1ccc(CN2CCNC(=O)CC2)c(Br)c1` | 9.581 |
| `Nc1ccn(CCO)n1` | -7.57 |
| `O=C(CSCc1cccs1)NC1CC1` | 19.94 |
| `CN(C(=O)c1cccs1)C1CCS(=O)(=O)C1` (centres unmarked) | 11.5 |
| `CCN(CC)c1ncccc1CNC(=O)C1CCCO1` (centres unmarked) | 18.38 |
| `COCC(O)CNc1ccc2ccc(F)cc2n1` (centres unmarked) | 39.19 |
| `CCc1nnsc1C(=O)N1CCc2sccc2C1` | 53.36 |
| `CC(C)CC(=O)NCCc1ccc(S(N)(=O)=O)s1` | 3.333 |
| `O=C(Cn1ccc(C(F)(F)F)n1)Nc1ccccn1` | 54.62 |
| `CSCCC(O)C(=O)N(C)CCc1ccncc1` (centres unmarked) | 7.186 |
| `CC(c1ccncc1)N(C)C(=O)CNC(=O)N(C)C` (centres unmarked) | 14.24 |
| `CNC(C(N)=O)c1cc(OC)ccc1Br` (centres unmarked) | 33.7 |
| `CNS(=O)(=O)c1ccc(C(=O)NCC2(C)CCC2)o1` | 29.42 |
| `CCOc1cccc2c1OCC(C(=O)N(C)C)C2` (centres unmarked) | 21.18 |
| `COc1ccc(CCN)c(F)c1` | 45.94 |
| `CN(Cc1ccccc1C(F)(F)F)C(=O)CCCN` | -5.739 |
| `CCN1C(=O)CN(C(=O)CC(C)C)CC12CCOCC2` | -1.411 |
| `N#Cc1ccc(NCC(=O)Nc2ncccc2O)cc1` | 27.51 |
| `CCCn1cc(CNc2nc(C3CC3)no2)cn1` | 74.4 |
| `Cc1cc(C(=O)N2CCN[C@H](C)C2)n[nH]1` | 9.843 |
| `CCc1ccnc(C(=O)NC(C)(CO)CO)c1` | 7.293 |
| `Cc1ccc(CN)c(OCC2CCCO2)c1` (centres unmarked) | -1.637 |
| `CC(O)c1ncc[nH]1` (centres unmarked) | 4.097 |
| `CCCn1nnc(NC(=O)c2cccnc2)n1` | 18.78 |
| `CCCc1cc(CN(C)C(=O)c2ccnnc2)n[nH]1` | 13.18 |
| `COCCN1CCCN(Cc2ccc(C)o2)CC1=O` | -6.875 |
| `CC(O)C(=O)N(C)c1ccccc1` (centres unmarked) | 7.566 |
| `CN(C1CCCCC1)S(=O)(=O)NC1CCCCNC1=O` (centres unmarked) | 54.93 |
| `CSC(C)C(=O)NCc1ccnc(N2CCOCC2)c1` (centres unmarked) | 21.04 |
| `O=C(CNc1ccccc1F)NC1CC1` | 5.147 |
| `COc1cc(C)cc(C(=O)NCc2ncc[nH]2)c1O` | 41.51 |
| `CCc1nccn1CCCNC(=O)CSC` | 4.552 |
| `CCC(NC(=O)c1nc(C)c[nH]1)c1cccc(C)n1` (centres unmarked) | 12.94 |
| `CN1CCN(c2cnn(CCC(N)=O)c(=O)c2)CC1` | 3.103 |
| `CCOC(=O)N1CCC(N2CCC(C(N)=O)CC2)CC1` | 26.19 |
| `Cn1nnc(CNC(=O)C2CSc3ccccc3O2)n1` (centres unmarked) | 42.37 |
| `COc1c(C)cnc(CNC(=O)N(C)C(C)C)c1C` | 4.585 |
| `CN(C)C1(CNC(=O)c2ccccn2)CCCC1` | 49.17 |
| `C[C@H](NC(=O)COC1CCCCC1)C(N)=O` | 4.237 |
| `CC(c1ccncc1)N(C)Cc1ccc(CO)o1` (centres unmarked) | -9.01 |
| `COC(=O)CCNC(=O)c1nc(SC)n2ccccc12` | 10.11 |
| `O=C(CS(=O)(=O)Cc1cccc(Cl)c1)NCC1CC1` | 67.32 |
| `CCC(=O)NCC(c1ccsc1)N(C)C` (centres unmarked) | 9.3 |
| `Nc1c[nH]nc1-c1ccccn1` | 16.81 |
| `Cc1nc(NC(=O)c2ccnn2C)sc1C` | 32.92 |
| `CC(C)N(C)S(=O)(=O)NCCCN(C)c1ccccc1` | 79.04 |
| `Cc1nc(CN2CCN(c3ncc(Br)cn3)CC2)n[nH]1` | -10.05 |
| `C[C@@H]1CNC(=O)C[C@H](C)O1` | -10.81 |
| `O=C(NCCN1CCCC1)c1csc(-c2ccco2)n1` | 66.08 |
| `Cc1ccc(C(=O)Nc2ccncc2F)cn1` | 21.79 |
| `CCOc1ccccc1CSc1nnc(O)[nH]1` | 20.29 |
| `CN(Cc1ccccc1OCCO)C1CCOCC1` | 3.274 |
| `CSCc1noc(CN(C)CCc2ccccn2)n1` | 24.03 |
| `COc1ccc(CSCC(N)=O)cc1Br` | 66.31 |
| `CCN(C(=O)c1ccc(N)nc1)[C@H]1COC[C@@H]1O` | 2.425 |

6 of the entries, repeated:

| compound | Percent Effect |
|---|---|
| `CC(O)c1ncc[nH]1` (centres unmarked) | 4.097 |
| `CCC(=O)NCC(c1ccsc1)N(C)C` (centres unmarked) | 9.3 |
| `CC(c1ccncc1)N(C)Cc1ccc(CO)o1` (centres unmarked) | -9.01 |
| `CCOc1ccccc1CSc1nnc(O)[nH]1` | 20.29 |
| `O=C1OCCN1CCn1nnc(-c2ccc(F)cc2)n1` | 39.9 |
| `CNC(=O)c1cccnc1N1CCSCC1` | 12.96 |

From ChEMBL document CHEMBL3988442, “University of Dundee, Small-Polar-MMV Screening Library” (2021).